Anti-infective test results gathered from many reports (values: NIAID ChemDB through PubChem).

Shared fields: target-level tests; organism: HIV-1; target: Integrase; method: disintegration; read-out: IC50

Blank or dashed fields: not listed here.

compound	strain or isolate	result
N#C/C(=C\c1ccc(O)c(O)c1)C(N)=O		>40 µM
O=C1NC(=S)NC(=O)C1=Cc1cc(O)c(O)c(O)c1		2.1 µM
CN(C)CCCNC(=O)c1cc(NC(=O)c2cc(NC(=O)c3cc(NC4C(=O)c5ccccc5C4=O)cn3C)cn2C)cn1C		28.5 µM
CC(=O)Oc1ccc(/C=C/C(=O)O[C@@H](C(=O)O)[C@@H](OC(=O)/C=C/c2ccc(OC(C)=O)c(OC(C)=O)c2)C(=O)O)cc1OC(C)=O	IIIB	3.3 µM
N#CC(C#N)=NNc1ccc(S(=O)(=O)c2ccc(NN=C(C#N)C#N)cc2)cc1		63.5 µM
O=C(O)c1ccc2ccc(/C=C/c3cc(O)c(O)c(O)c3)nc2c1O		1 µM
CN(C)CCCNC(=O)c1cc(NC(=O)c2cc(NC(=O)c3cc(NC(=O)c4ccc(C(=O)Nc5cc(C(=O)Nc6cc(C(=O)Nc7cc(C(=O)NCCCN(C)C)n(C)c7)n(C)c6)n(C)c5)nc4)cn3C)cn2C)cn1C		0.68 µM
O=C1c2ccccc2C(=O)c2c(O)ccc(O)c21		>40 µM
O=[N+]([O-])c1cc(S(=O)(=O)c2ccc(F)c([N+](=O)[O-])c2)ccc1F		63.5 µM
CN(C)CCCNC(=O)c1cc(NC(=O)c2cc(NC(=O)c3cc(NC(=O)c4ccc(C(=O)Nc5cc(C(=O)Nc6cc(C(=O)Nc7cc(C(=O)NCCCN(C)C)n(C)c7)n(C)c6)n(C)c5)cc4)cn3C)cn2C)cn1C		0.61 µM
O=[N+]([O-])c1cc(S(=O)(=O)c2ccc(S)c([N+](=O)[O-])c2)ccc1S		13 µM
O=C(/C=C/c1ccc(O)c(O)c1)O[C@@H]1CC(O)(C(=O)O)C[C@@H](OC(=O)/C=C/c2ccc(O)c(O)c2)C1O	LAI	0.66 ± 0.24 µg/mL
CN(C)CCCNC(=O)c1cc(NC(=O)c2cc(NC(=O)c3cc(NC(=O)c4cncc(C(=O)Nc5cc(C(=O)Nc6cc(C(=O)Nc7cc(C(=O)NCCCN(C)C)n(C)c7)n(C)c6)n(C)c5)c4)cn3C)cn2C)cn1C		86 µM
O=C1/C(=C/c2cc(O)c(O)c(O)c2)CN(Cc2ccccc2)C/C1=C\c1cc(O)c(O)c(O)c1		2 µM
COC(=O)C(=O)OC1(C(=O)O)C[C@@H](OC(=O)/C=C/c2ccc(O)c(O)c2)C(O)[C@H](OC(=O)/C=C/c2ccc(O)c(O)c2)C1		0.57 µg/mL
COC(=O)C(=O)OC1(C(=O)O)C[C@@H](OC(=O)/C=C/c2ccc(O)c(O)c2)C(O)[C@H](OC(=O)/C=C/c2ccc(O)c(O)c2)C1	LAI	0.47 ± 0.28 µg/mL
O=C(O)C1(O)C[C@@H](O)C(O)[C@H](O)C1		>50 µg/mL
O=C1/C(=C/c2ccc(O)c(O)c2)CC(C(=O)O)C/C1=C\c1ccc(O)c(O)c1		0.1 µM

For reference, 2 entries again:

compound	strain or isolate	result
CN(C)CCCNC(=O)c1cc(NC(=O)c2cc(NC(=O)c3cc(NC(=O)c4ccc(C(=O)Nc5cc(C(=O)Nc6cc(C(=O)Nc7cc(C(=O)NCCCN(C)C)n(C)c7)n(C)c6)n(C)c5)cc4)cn3C)cn2C)cn1C		0.61 µM
O=C1c2ccccc2C(=O)c2c(O)ccc(O)c21		>40 µM

ICn is the concentration giving n% inhibition. Lines come from different laboratories, so protocols vary.